Test results as given in PubChem BioAssay AID720596 (The Scripps Research Institute Molecular Screening Center, 2013).
This is a selection; strong and weak results do not stand in their true shares. Calls of active or inactive are those of the source. Cut-off read from the data, not from the text of the source: active = inhibition above about 24%; inactive = the rest.

Each compound was assayed against Major prion protein (Homo sapiens) (UniProt P04156) (assay: reduces human prion protein on the cell surface, primary screen, cell-based, TR-FRET (AID 720596; note: 0% = median of the test wells and 100% = reference compound wells)). Conditions: cell surface PrPC, TR-FRET read-out; at 13.8 µM; stronger effect = higher value.
In the case of COc1ccccc1CNC(=O)COC(=O)C(O)(c1ccccc1)c1ccccc1, the inhibition is reported as inactive: 7.38%. Cc1cccc(OCC(=O)OC2CN3CCC2CC3)c1 (stereo not given) was tested, and the inhibition was inactive: 3.88%. With O=[As](O)(c1cccc(O)c1)c1cccc(O)c1 the inhibition was inactive: -2.28%. For O=C(OC1CN2CCC1CC2)c1ccc(Cl)cc1 (stereo not given), the inhibition was inactive: -12.2%. For O=[As](O)(O)c1cccnc1, the inhibition was inactive: 4.89%. COc1cc(C(=O)NCC2(N3CCOCC3)CCCCC2)cc(Cl)c1OC(C)C was tested, and the inhibition was inactive: -1.99%. CS(=O)(=O)c1ccc(Cl)c(NC(=O)COC(=O)C(O)(c2ccccc2)c2ccccc2)c1 was tested, and the inhibition was inactive: 4.95%. In the case of COc1cc(C2NCCC3(OCCO3)C2(C)C)cc(OC)c1OC (stereo not given), the inhibition is reported as inactive: -0.16%. CCOP(=O)(Nc1cccc2ccccc12)OCC was tested, and the inhibition was inactive: 1.9%. Cc1ccc(NCCc2c([N+](=O)[O-])cc([N+](=O)[O-])cc2[N+](=O)[O-])cc1 was tested, and the inhibition was inactive: -32.4%. In the case of Nc1cccc2c([As](=O)(O)O)cccc12, the inhibition is reported as inactive: -19.7%. With CCCOP(=S)(Nc1nc(N)cc(=O)[nH]1)OCCC the inhibition was inactive: 12.3%. For Nc1ccccc1[As](=O)(O)c1ccccc1, the inhibition was inactive: -3.49%. In the case of O=C(O)COc1ccc([As](=O)(O)O)cc1[N+](=O)[O-], the inhibition is reported as inactive: 5.37%. With CCOP1(=S)c2c(C)nn(CCC#N)c2N=C(c2ccccc2F)N1C (stereo not given) the inhibition was inactive: -1.6%. For O=P(Nc1nccs1)(Oc1ccccc1)Oc1ccccc1, the inhibition was inactive: -0.64%. With N#CCCN(C(=O)COC(=O)C(O)(c1ccccc1)c1ccccc1)c1ccc(F)cc1 the inhibition was inactive: -1.88%. With CCOP1(=S)c2c(C)nn(CCC#N)c2N=C(c2ccc(F)cc2)N1C (stereo not given) the inhibition was inactive: -1.08%. With CN(C(=O)Cc1ccccc1)[C@@H]1CC[C@]2(CCCO2)C[C@H]1N1CCCC1 the inhibition was inactive: -6.98%. O=[N+]([O-])c1ccc2c(c1)nnn2O was tested, and the inhibition was inactive: -19.5%. With CN(C)C(=O)c1cc([N+](=O)[O-])cc2c1-c1c(cc([N+](=O)[O-])cc1[N+](=O)[O-])C2=O the inhibition was inactive: -40%. For CN(C(=O)Cc1ccc(Cl)c(Cl)c1)[C@H]1CC[C@@]2(CCCO2)C[C@@H]1N1CCCC1, the inhibition was inactive: -9.76%. With NC(=O)Nc1ccc([As](=O)(O)O)cc1 the inhibition was inactive: 0.36%. In the case of O=P1(N(CCCl)CCCl)OCCC2CCCCN21 (stereo not given), the inhibition is reported as inactive: 5.95%. With c1ccc(-c2nn[nH]n2)c(-c2nn[nH]n2)c1 the inhibition was inactive: 7.23%. In the case of Cc1ccc(NP(=O)(Oc2cccc(C)c2)Oc2cccc(C)c2)nc1, the inhibition is reported as inactive: -2.19%. CCNC(=S)/N=C(\N)N[N+](=O)[O-] was tested, and the inhibition was inactive: -4.29%. With O=C(NC1CCS(=O)(=O)C1)NP(=S)(Oc1ccccc1)Oc1ccccc1 (stereo not given) the inhibition was inactive: -5.08%. With CC(NC(=O)COC(=O)C(O)(c1ccccc1)c1ccccc1)c1ccccc1 (stereo not given) the inhibition was inactive: 8.52%. With Cc1ccccc1OP(=O)(Nc1ccccn1)Oc1ccccc1C the inhibition was inactive: -0.21%. In the case of O=c1c2cc([N+](=O)[O-])ccc2[nH]c2c([N+](=O)[O-])cc([N+](=O)[O-])cc12, the inhibition is reported as inactive: -15.4%. For CN(C)C(=O)Oc1noc2ccccc12, the inhibition was inactive: 7.23%. With O=C(OC1CN2CCC1CC2)c1ccccc1 (stereo not given) the inhibition was inactive: 1.29%. For CCC(=O)N1C2C3N(C(=O)CC)C1C1N(C(=O)CC)C(C(N1C(=O)CC)N3C(=O)CC)N2C(=O)CC, the inhibition was inactive: 0.6%. For COC(=O)c1cc2c(s1)N=C(c1ccccc1)N(C)P2(=O)N1CCOCC1 (stereo not given), the inhibition was inactive: -4.47%. CC(=O)NC(SC(=S)N(CC(C)C)CC(C)C)C(Cl)(Cl)Cl (stereo not given) was tested, and the inhibition was inactive: -7.49%. Cc1ccc(OP(=O)(Nc2ccccn2)Oc2ccc(C)cc2)cc1 was tested, and the inhibition was inactive: 3.98%. CC(C)(C)C(=O)NC(Sc1ccccc1)C(Cl)(Cl)Cl (stereo not given) was tested, and the inhibition was inactive: 2.58%. With CCc1cc(O)c([N+](=O)[O-])c(C)c1[N+](=O)[O-] the inhibition was inactive: -3.98%. O=P1(Nc2nc3ccc(Cl)cc3s2)COc2ccccc2O1 (stereo not given) was tested, and the inhibition was inactive: -5.4%. In the case of CCOc1ccc(C2=NCC(CBr)S2)cc1 (stereo not given), the inhibition is reported as inactive: 5.12%. For CC(=O)Nc1ccc([As](=O)(O)O)c(O)c1, the inhibition was inactive: -6.53%. With CC(=O)Nc1ccc(Oc2c([N+](=O)[O-])cc([N+](=O)[O-])cc2[N+](=O)[O-])cc1 the inhibition was inactive: -20.1%. For Cc1ccccc1CN(C)C(=O)COC(=O)C(O)(c1ccccc1)c1ccccc1, the inhibition was inactive: 1.7%. For C[C@H]1OP(=O)(Oc2ccccc2)C[C@@H]2O[C@@H]21 (stereo not given in full), the inhibition was inactive: 6.9%. For C[C@@H]1C=CCP(=O)(Oc2ccccc2)O1 (stereo not given in full), the inhibition was inactive: 9.86%. For CC(=O)c1ccc(N2CC2c2ccncc2)cc1 (stereo not given), the inhibition was inactive: 10.9%. N#C/C(=C\c1ccc(N(CCBr)CCBr)cc1)C(N)=O was tested, and the inhibition was inactive: 0.04%. COC(=O)C1(C)COP(=O)(NCc2ccccc2)OC1 (stereo not given) was tested, and the inhibition was inactive: -5.16%. For c1nnnn1CCn1cnnn1, the inhibition was inactive: 4.13%. In the case of CC(C)C(=O)NC(Sc1ccccc1)C(Cl)(Cl)Cl (stereo not given), the inhibition is reported as inactive: 5.62%. For O=P(Nc1nccs1)(c1ccccc1)c1ccccc1, the inhibition was inactive: -1.28%. For O=P(Nc1nc2ccccc2s1)(c1ccccc1)c1ccccc1, the inhibition was inactive: 1.46%. In the case of C[C@H]1OP(=O)(Oc2ccccc2)[C@H](O)[C@H](O)[C@H]1N=[N+]=[N-] (stereo not given in full), the inhibition is reported as inactive: -1.56%. In the case of O=P(Nc1ccccn1)(c1ccc(Br)cc1)c1ccc(Br)cc1, the inhibition is reported as inactive: 3.63%. CN(C)C1(CNC(=O)c2ccc(Cl)c(S(N)(=O)=O)c2)CCCCC1 was tested, and the inhibition was inactive: 5.87%. With COc1ccc(N)c([N+](=O)[O-])c1[N+](=O)[O-] the inhibition was inactive: -14.4%. Nc1ccc(CCCCOc2ccccc2)cc1 was tested, and the inhibition was inactive: -1.4%. With O=C(OC1CN2CCC1CC2)c1cccc(Cl)c1 (stereo not given) the inhibition was inactive: 2.68%. With C/C(N)=N\P(=O)(OCc1ccccc1)OCc1ccccc1 the inhibition was inactive: 6.99%. In the case of C(Cc1nn[nH]n1)Cc1nn[nH]n1, the inhibition is reported as inactive: 1.99%. For Nc1ccc([As](=O)(O)c2ccc([N+](=O)[O-])cc2)cc1, the inhibition was inactive: -11.1%. With O=[As](O)(c1ccccc1)c1ccc(O)cc1 the inhibition was inactive: -4.83%. With CC(=O)NC(SC(=S)N(C)C)C(Cl)(Cl)Cl (stereo not given) the inhibition was inactive: -3.68%. O=[N+]([O-])c1ncn(CCn2cnc([N+](=O)[O-])n2)n1 was tested, and the inhibition was inactive: 1.47%. O=C(Nc1cc([As](=O)(O)O)ccc1O)c1ccccc1 was tested, and the inhibition was inactive: 7.51%. With O=P1(N(CCCl)CCCl)OCCCS1 (stereo not given) the inhibition was inactive: 1.91%. For O=C(O)CNc1ccc([As](=O)(O)O)cc1, the inhibition was inactive: 3.21%. COC(=O)C1(C)COP(=O)(Nc2ccccc2)OC1 (stereo not given) was tested, and the inhibition was inactive: -10.1%. In the case of O=[N+]([O-])c1cccc(NC2=NCC(CBr)S2)c1 (stereo not given), the inhibition is reported as inactive: -32.6%. With O=[N+]([O-])c1ncn(CCn2ncnc2[N+](=O)[O-])n1 the inhibition was inactive: -26.1%. With CC(C)(C)C(=O)NC(Sc1ccncn1)C(Cl)(Cl)Cl (stereo not given) the inhibition was inactive: 5.13%. In the case of Cc1ccc(NP(=O)(Oc2ccccc2)Oc2ccccc2)nc1, the inhibition is reported as inactive: 10.9%. CCc1nc2c(n1)c1c(non1O)c1c2no[n+]1[O-] was tested, and the inhibition was inactive: -32%. In the case of O=[N+]([O-])c1cc([N+](=O)[O-])c(CCNc2ccccc2)c([N+](=O)[O-])c1, the inhibition is reported as inactive: -40.2%. In the case of O=[N+]([O-])c1cccc2n[nH]nc12, the inhibition is reported as inactive: -17.6%. For CC(=O)N1C2C3N(C(C)=O)C1C1N(C(C)=O)C(C(N1C(C)=O)N3C(C)=O)N2C(C)=O, the inhibition was inactive: 4.84%. For COc1ccc(C2=NCC(CBr)S2)cc1 (stereo not given), the inhibition was inactive: -1.65%. For CC1CCN(C(=O)Oc2c(Cl)cc(Cl)c3cccnc23)CC1, the inhibition was inactive: -9.55%. In the case of c1cc(-c2nn[nH]n2)ccc1-c1nn[nH]n1, the inhibition is reported as inactive: 2.05%. With CC(C)c1nc(Nc2ccccc2)n(P(=O)(N(C)C)N(C)C)n1 the inhibition was inactive: 3.82%. CC(C)=N/N=C(\N)N[N+](=O)[O-] was tested, and the inhibition was inactive: -0.87%. CN(C)C(=O)OCCc1n(C)cc[n+]1C was tested, and the inhibition was inactive: -0.6%. With CCN(/C(=N/P(=O)(N1CCOCC1)N1CCOCC1)N1CCOCC1)c1ccc(OC)cc1 the inhibition was inactive: 5.28%. In the case of Nc1ccc([As](=O)(O)c2ccc(N)cc2)cc1, the inhibition is reported as inactive: -0.61%. C[N+]1=C2C=CC=CC=C2SC12C([N+](=O)[O-])=CC([N+](=O)[O-])=C[C-]2[N+](=O)[O-] (stereo not given) was tested, and the inhibition was inactive: -21.4%. With CN1CCCC(OC(=O)C(c2ccccc2)c2ccccc2)C1 (stereo not given) the inhibition was inactive: -8.24%. With Clc1ccc(Cl)c(NC2=NCC(CBr)S2)c1 (stereo not given) the inhibition was inactive: 0.56%. With COc1ccccc1OP(=O)(Nc1ccc(C)cn1)Oc1ccccc1OC the inhibition was inactive: -7.16%. For Cc1ccc(OP(=O)(Nc2nccs2)Oc2ccc(C)cc2)cc1, the inhibition was inactive: 7.06%. CN(C(=O)Cc1ccc(Cl)c(Cl)c1)[C@H]1CCCC[C@H]1N1CCCC1 was tested, and the inhibition was inactive: 0.6%. For Cc1ccc(N/C(=N/P(=O)(N2CCOCC2)N2CCOCC2)N2CCOCC2)cc1, the inhibition was inactive: 4.07%. NC(=O)c1cc([N+](=O)[O-])cc([N+](=O)[O-])c1N was tested, and the inhibition was inactive: -49.5%. In the case of Oc1ccccc1CNc1ccccn1, the inhibition is reported as inactive: 0.07%. With O=C(NC(Sc1ccncn1)C(Cl)(Cl)Cl)c1ccccc1 (stereo not given) the inhibition was inactive: -6.74%. With Nc1cc(N)c2nonc2c1[N+](=O)[O-] the inhibition was inactive: -29.4%. CC(C)CC(=O)NC(Sc1ccc(Cl)cc1)C(Cl)(Cl)Cl (stereo not given) was tested, and the inhibition was inactive: 0.6%. For CCn1c(=O)n(C2CCN(CC3CCCCCCC3)C[C@H]2CO)c2ccccc21 (stereo not given in full), the inhibition was inactive: 6.66%. For Cc1cc(SC(NC(=O)c2ccc(F)cc2)C(Cl)(Cl)Cl)ncn1 (stereo not given), the inhibition was inactive: 8.12%. With CCOP(=O)(Nc1ccccc1)OCC the inhibition was inactive: 3.4%. Cc1ccc(NP(=O)(Oc2ccccc2F)Oc2ccccc2F)nc1 was tested, and the inhibition was inactive: 7.2%. For CN(C(=O)Cc1ccc(Cl)c(Cl)c1)[C@H]1CCCC[C@@H]1N1CCCC1, the inhibition was inactive: -6.6%. In the case of O=P(Nc1nc2ccc(Cl)cc2s1)(c1ccccc1)c1ccccc1, the inhibition is reported as inactive: -2.05%. CN(C)P(=O)(N(C)C)n1c(Nc2ccccc2)nnc1-c1ccccc1 was tested, and the inhibition was inactive: -3.38%. With CC(=O)Nc1ccc([As](=O)(O)O)cc1 the inhibition was inactive: -8.31%. For O=C(O)c1ccccc1[As](=O)(O)O, the inhibition was inactive: 0.82%. CCCC1OP(N)(=O)OCC1CC (stereo not given) was tested, and the inhibition was inactive: 7.67%. For Nc1cccc2ccc([As](=O)(O)O)cc12, the inhibition was inactive: -12.6%. With CN(C(=O)Cc1ccccc1)C1CC[C@@]2(CCCO2)C[C@@H]1N1CCCC1 (stereo not given in full) the inhibition was inactive: 8.65%. CCN(N=Nc1nonc1N)c1nonc1N was tested, and the inhibition was inactive: 3.22%.
